Pooled drug test results. Numbers come from NIAID ChemDB, via PubChem.

All rows: whole-cell or culture tests; agent: Aspergillus niger; endpoint: zone

Rows are shuffled and stem from different studies.

SMILES | strain or isolate | tested at | method | value
CS(=O)(=O)c1nc(N)c(C#N)c(-c2cccc([N+](=O)[O-])c2)n1 | MTCC 282 | 25 µg/mL | agar diffusion | 18 mm
Cc1cc(=O)oc2c(C=Nc3cccc4cccc(N=Cc5c(O)ccc6c(C)cc(=O)oc56)c34)c(O)ccc12 | MTCC 1881 | 500 µg/mL |  | 18 mm
C=C1CC[C@H](C)[C@@]2(C)[C@@H](OC(=O)CC(C)C)C[C@@H](OC(C)=O)[C@]3(CO3)[C@@H]2[C@H](OC(C)=O)[C@@]2(O)[C@H](C1)OC(=O)[C@@H]2C |  | 200 µg/mL | agar diffusion / agar | 18 mm
CS(=O)(=O)c1nc(N)c(C#N)c(-c2ccc(Cl)cc2)n1 | MTCC 282 | 25 µg/mL | agar diffusion | 19 mm
Cc1ccc2c(c1)C(C=NNC(=O)N1c3ccccc3C=Cc3ccccc31)C(c1ccccc1)=N2 | MTCC 281 | 1000 µg/mL | agar diffusion | 14 mm
CS(=O)(=O)c1nc(N)c(C#N)c(/C=C\c2ccccc2)n1 | MTCC 282 | 50 µg/mL | agar diffusion | 19 mm
O=C(NN=Cc1ccc(Cl)cc1)c1snnc1C(F)(F)F | MTCC 1344 | 100 µg/mL | agar diffusion / agar | 0 mm
Cc1ccc2c(c1)C(C1SCC(=O)N1NC(=O)N1c3ccccc3C=Cc3ccccc31)C(c1ccccc1)=N2 | MTCC 281 | 1000 µg/mL | agar diffusion | 5 mm
CC(C)=NNC(=O)c1snnc1C(F)(F)F | MTCC 1344 | 150 µg/mL | agar diffusion / agar | 0 mm
CSC1=NC(c2ccccc2Cl)C(C#N)=C(N)N1 | MTCC 282 | 100 µg/mL | agar diffusion | 18 mm
CC1(C)CCC2=C(C1=O)C(c1cccc(C3C4=C(CCC(C)(C)C4=O)OC4=C3C(=O)C(C)(C)CC4)c1)C1=C(CCC(C)(C)C1=O)O2 | ATCC 10949 | 20 µg/mL | agar diffusion | 0 mm
C=C1CC[C@@H](OC(C)=O)[C@]2(C)[C@H](OC(C)=O)[C@H](OC(C)=O)[C@H](OC(C)=O)[C@@]3(CO3)[C@H]2[C@@H](OC(C)=O)[C@@]2(O)[C@H](C)C(=O)O[C@@H]2[C@@H]1Cl |  | 200 µg/mL | agar diffusion / agar | 10 mm
O=C1CC(c2ccccc2)CC2=C1C(c1ccc(C3C4=C(CC(c5ccccc5)CC4=O)OC4=C3C(=O)CC(c3ccccc3)C4)cc1)C1=C(CC(c3ccccc3)CC1=O)O2 | ATCC 10949 | 20 µg/mL | agar diffusion | 0 mm
COc1ccc(C=NNC(=O)c2snnc2C(F)(F)F)cc1 | MTCC 1344 | 150 µg/mL | agar diffusion / agar | 0 mm
CSC1=NC(c2cccc3cc4ccccc4cc23)C(C#N)=C(N)N1 | MTCC 282 | 25 µg/mL | agar diffusion | 14 mm
O=C1CCCC2=C1C(c1ccc(C3C4=C(CCCC4=O)OC4=C3C(=O)CCC4)cc1)C1=C(CCCC1=O)O2 | ATCC 10949 | 40 µg/disc | agar diffusion | 0 mm
O=C(NN=C1CCCCCC1)c1snnc1C(F)(F)F | MTCC 1344 | 150 µg/mL | agar diffusion / agar | 0 mm
CN(C)C=O |  | 50 µg/mL |  | 6 mm
CS(=O)(=O)c1nc(N)c(C#N)c(-c2ccc(O)cc2)n1 | MTCC 282 | 25 µg/mL | agar diffusion | 18 mm
O=C(NN=CC1C(c2ccccc2)=Nc2ccccc21)N1c2ccccc2C=Cc2ccccc21 | MTCC 281 | 500 µg/mL | agar diffusion | 5 mm
CC1(C)CCC2=C(C1=O)C(c1ccc(C3C4=C(CCC(C)(C)C4=O)OC4=C3C(=O)C(C)(C)CC4)cc1)C1=C(CCC(C)(C)C1=O)O2 | ATCC 10949 | 40 µg/disc | agar diffusion | 0 mm
CS(=O)(=O)c1nc(N)c(C#N)c(-c2ccccc2O)n1 | MTCC 282 | 25 µg/mL | agar diffusion | 18 mm
O=C1CC(c2ccccc2)CC2=C1C(c1cccc(C3C4=C(CC(c5ccccc5)CC4=O)OC4=C3C(=O)CC(c3ccccc3)C4)c1)C1=C(CC(c3ccccc3)CC1=O)O2 | ATCC 10949 | 40 µg/disc | agar diffusion | 0 mm
CS(=O)(=O)c1nc(N)c(C#N)c(-c2ccccc2[N+](=O)[O-])n1 | MTCC 282 | 100 µg/mL | agar diffusion | 22 mm

For reference, 2 entries again:

SMILES,strain or isolate,tested at,method,value
C=C1CC[C@H](C)[C@@]2(C)[C@@H](OC(=O)CC(C)C)C[C@@H](OC(C)=O)[C@]3(CO3)[C@@H]2[C@H](OC(C)=O)[C@@]2(O)[C@H](C1)OC(=O)[C@@H]2C,,200 µg/mL,agar diffusion / agar,18 mm
COc1ccc(C=NNC(=O)c2snnc2C(F)(F)F)cc1,MTCC 1344,150 µg/mL,agar diffusion / agar,0 mm

Blank or dashed fields: not listed here. Zones are inhibition diameters on agar.